Test results: patent US7906119, “Antibodies against protective antigen” (Human Genome Sciences, dated 2011)

What was measured:
[1] = molecular target: T1, protective antigen of Bacillus anthracis (PA83) (Bacillus anthracis)
[2] = molecular target: T1, protective antigen of Bacillus …; experiment: BIAcore; PA immobilized on CM5 chip, IgG1 in solution

B1: PWD0283 (IgG1 format) (antibody, V domains shown)
VH: EVQLLESGGGLVQPGGSLRLSCAASGFTFSSYATSWVRQAPGKGLEWVSAISGSGGSTYYADSVKGRFTISRDNSKNTLYLQMNSLRAEDTAVYYCARVGGAIRFDSWGRGTLVTVSS
VL: SYELTQPPSASETPGQRVSISCSGGTSNIGSNTINWYQQVPGTAPKLLIYFNNRRPAGVPARFSASKSGTSASLTISGLQSEDEADYYCSAWDDSLSGVVFGGGTKLTVLG
[1]
  IC50 (read off the curve): ~0.1 micrograms/mL
[2]
  Kd: 0.232 nM
  koff: 0.00103 s⁻¹
  kon: 4.46e+06 M⁻¹ s⁻¹
